Measured values from several laboratories, pooled; numbers as filed in NIAID ChemDB.

Shared fields: growth or infection tests; species: Candida albicans; endpoint: MIC100

MIC50, MIC90 and the like: level of inhibition, or share of isolates inhibited. Neighbouring rows are from separate reports. An empty or dashed field is not shown.

compound	strain or isolate	method	result
COc1ccc(/C=N/O)cc1	-	-	>6620 µM
O=C(Nc1ccc(Cc2nc3ccccc3s2)cc1)c1ccc([N+](=O)[O-])cc1	ATCC 10231	broth dilution	25 µg/mL
CCCCCn1cc[n+](COCCCCCCOC[n+]2ccn(CCCCC)c2)c1	ATCC 90028	agar diffusion	10 µM
O/N=C\c1ccccc1O	-	-	1800 µM
CCCCCCCCCCCCCCn1cc[n+](COCCCCOC[n+]2ccn(CCCCCCCCCCCCCC)c2)c1	ATCC 90028	agar diffusion	7 µM
Cc1ccc(-c2nc3ccccc3c(=O)n2-c2ccc(C(=O)NN3C(=O)/C(=C/c4cccc(O)c4)SC3c3ccc(F)cc3)cc2)cc1	MTCC 227	-	1000 µg/mL
CCCCCCn1cc[n+](COCCOC[n+]2ccn(CCCCCC)c2)c1	ATCC 90028	agar diffusion	86 µM
C=C(C)C(=O)OCCCCCCCCCC[n+]1ccccc1.[Br-]	ATCC 90028	-	630 µg/mL
CCCCCn1cc[n+](COCCCOC[n+]2ccn(CCCCC)c2)c1	ATCC 90028	agar diffusion	1379 µM
COc1ccc(/C=N\O)cc1	-	broth dilution	>6620 µM
O=C1C(Cl)C2(C(=O)Nc3ccccc32)N1c1ccccc1	MTCC 183	-	23 µg/mL
Cc1ccc(-c2nc3ccccc3c(=O)n2-c2ccc(C(=O)NN3C(=O)/C(=C/c4cccc(Br)c4)SC3c3ccc(F)cc3)cc2)cc1	MTCC 227	-	1000 µg/mL
O=C1C(Cl)C2(C(=O)Nc3ccccc32)N1c1ccccc1[N+](=O)[O-]	MTCC 183	-	>100 µg/mL
O=C1CSC2(CCc3ccccc32)N1n1c(COc2ccc(Cl)cc2Cl)n[nH]c1=S	-	-	12.5 µg/mL
O=C(Nc1ccc(Cc2nc3ccccc3s2)cc1)c1ccccc1	ATCC 10231	broth dilution	25 µg/mL
CCCCCCCCCCCCCCCCn1cc[n+](COCCCCOC[n+]2ccn(CCCCCCCCCCCCCCCC)c2)c1	ATCC 90028	agar diffusion	104 µM
O=C1CSC2(CCc3ccccc32)N1n1c(-c2ccc(Cl)cc2)n[nH]c1=S	-	-	25 µg/mL
Cc1ccc(-c2nc3ccccc3c(=O)n2-c2ccc(C(=O)NN3C(=O)/C(=C/c4ccc(Cl)cc4)SC3c3ccc(F)cc3)cc2)cc1	MTCC 227	-	500 µg/mL
COc1ccc(CC(=O)Nc2ccc(Cc3nc4ccccc4s3)cc2)cc1	ATCC 10231	broth dilution	25 µg/mL
Cc1ccc(-c2c3c(N)c4c(nc3nc3c2c(C)nn3-c2ccccc2)CCC4)cc1	ATCC 10231	broth dilution / absorbance	125 µg/mL
CC1CC(C)CN(c2nc3ccc4c(ccc(=O)n4C)c3s2)C1	MTCC 183	-	50 µg/mL
Cc1ccccc1OCc1n[nH]c(=S)n1N1C(=O)CSC12CCc1ccccc12	-	-	6.25 µg/mL
C[C@H]1[C@H](O)[C@@H](C)/C=C/C=C/C=C/C=C/C=C/C=C/C=C/[C@H](O[C@@H]2O[C@H](C)[C@@H](O)[C@H](N)[C@@H]2O)C[C@@H]2O[C@](O)(C[C@@H](O)C[C@@H](O)CC[C@H](O)[C@@H](O)C[C@@H](O)CC(=O)O[C@H]1C)C[C@H](O)[C@H]2C(=O)O	CCC 128	broth dilution / absorbance	1.56 µg/mL
CCCCCCCCCCCCn1cc[n+](COCCOC[n+]2ccn(CCCCCCCCCCCC)c2)c1	ATCC 90028	agar diffusion	16 µM
Cc1ccc(-c2c3c(N)c4c(nc3nc3c2c(C)nn3-c2ccccc2)CCCCC4)cc1	ATCC 10231	broth dilution / absorbance	125 µg/mL
OC(Cn1cncn1)(Cn1cncn1)c1ccc(F)cc1F	MTCC 183	-	12.5 µg/mL
O=C1C(Cl)C2(C(=O)Nc3ccccc32)N1c1ccc([N+](=O)[O-])cc1	MTCC 183	-	25 µg/mL
O=C1CSC2(CCc3ccccc32)N1n1c(-c2ccc(Cl)cc2Cl)n[nH]c1=S	-	-	6.25 µg/mL
Cc1ccc(N2C(=O)C(Cl)C23C(=O)Nc2c(Br)cc(Br)cc23)cc1	MTCC 183	-	16 µg/mL
O=C(Nc1ccc(Cc2nc3ccccc3s2)cc1)c1ccc(Cl)cc1	ATCC 10231	broth dilution	25 µg/mL
Cc1ccc(-c2nc3ccccc3c(=O)n2-c2ccc(C(=O)NN3C(=O)/C(=C/c4cccc(Cl)c4)SC3c3ccc(F)cc3)cc2)cc1	MTCC 227	-	1000 µg/mL
O=c1ccc2c(ccc3nc(N4CCN(c5ccc(F)cc5)CC4)sc32)o1	MTCC 183	-	100 µg/mL
CCCCCCCCCCCCn1cc[n+](COCCCCCCOC[n+]2ccn(CCCCCCCCCCCC)c2)c1	ATCC 90028	agar diffusion	15 µM
O=C(CCc1ccccc1)Nc1ccc(Cc2nc3ccccc3s2)cc1	ATCC 10231	broth dilution	25 µg/mL
COC1=CC(=O)C[C@@H](C)[C@]12Oc1c(Cl)c(OC)cc(OC)c1C2=O	MTCC 227	-	1000 µg/mL
O/N=C\c1ccc(F)cc1	-	-	7200 µM
O=C(Cc1ccc(F)cc1)Nc1ccc(Cc2nc3ccccc3s2)cc1	ATCC 10231	broth dilution	50 µg/mL
COc1ccc(-c2c3c(N)c4c(nc3nc3c2c(C)nn3-c2ccccc2)CCC4)cc1	ATCC 10231	broth dilution / absorbance	250 µg/mL
O=[N+]([O-])c1ccc(/C=N\O)cc1	-	-	6020 µM
Cc1ccc(-c2c3c(N)c4c(nc3nc3c2c(C)nn3-c2ccccc2)CCCC4)cc1	CCC 126	broth dilution / absorbance	31.2 µg/mL
O=c1ccc2c(ccc3nc(N4CCN(c5ccccc5Cl)CC4)sc32)o1	MTCC 183	-	200 µg/mL
Cc1ccc(-c2nc3ccccc3c(=O)n2-c2ccc(C(=O)NN3C(=O)/C(=C/c4ccc(N(C)C)cc4)SC3c3ccc(F)cc3)cc2)cc1	MTCC 227	-	1000 µg/mL
O/N=C\c1cccs1	-	-	7870 µM
Cn1c(=O)ccc2c3sc(N4CCN(c5ncccn5)CC4)nc3ccc21	MTCC 183	-	100 µg/mL
Cc1ccc(-c2nc3ccccc3c(=O)n2-c2ccc(C(=O)NN3C(=O)/C(=C/c4ccc(F)cc4)SC3c3ccc(F)cc3)cc2)cc1	MTCC 227	-	500 µg/mL
O=C1C(Cl)C2(C(=O)Nc3c(Br)cc(Br)cc32)N1c1ccc([N+](=O)[O-])cc1	MTCC 183	-	26 µg/mL

Repeating the final 3 entries:

{"compound": "Cn1c(=O)ccc2c3sc(N4CCN(c5ncccn5)CC4)nc3ccc21", "strain or isolate": "MTCC 183", "result": "100 µg/mL"}
{"compound": "Cc1ccc(-c2nc3ccccc3c(=O)n2-c2ccc(C(=O)NN3C(=O)/C(=C/c4ccc(F)cc4)SC3c3ccc(F)cc3)cc2)cc1", "strain or isolate": "MTCC 227", "result": "500 µg/mL"}
{"compound": "O=C1C(Cl)C2(C(=O)Nc3c(Br)cc(Br)cc32)N1c1ccc([N+](=O)[O-])cc1", "strain or isolate": "MTCC 183", "result": "26 µg/mL"}